In PubChem BioAssay AID588497 (NMMLSC, 2011) one finds inhibition data, which are given here for 96 compounds.

SMILES strings stand for the structures. The entries are a selection whose mix differs from that of the whole data set. Inconclusive results are not listed. The source made the active and inactive calls. Cut-off read from the data, not from the text of the source: active = inhibition above about 35% (passing the limit was not always enough); inconclusive = no clear call, values can overlap the other calls.

For the test, the system named is Botulinum neurotoxin type F light chain protease (Clostridium botulinum). The test is described as follows: BoNT/F light chain protease inhibitors, primary screen, biochemical, flow cytometry, MLPCN library (AID 588497). Note: plate controls were buffer without enzyme for full effect and enzyme alone for no effect. The conditions noted are these: Multiplex microsphere protease cleavage assay, at 10 µM, hits give high values.
As a reminder, the inhibition is the drop in the measured response relative to a control, in per cent. In the case of `CCNC(=S)/N=C(\N)N[N+](=O)[O-]`, the inhibition was inactive: -6.1%.

Take `CC(=O)Nc1ccc([As](=O)(O)O)c(O)c1`: the inhibition was inactive: -3.3%. For `CC(=O)Nc1ccc(Oc2c([N+](=O)[O-])cc([N+](=O)[O-])cc2[N+](=O)[O-])cc1` the value was inactive: -0.2%. To `Cc1ccccc1CN(C)C(=O)COC(=O)C(O)(c1ccccc1)c1ccccc1` belongs inactive: 4.5%; to `C[C@H]1OP(=O)(Oc2ccccc2)C[C@@H]2O[C@@H]21` (stereo partly specified), inactive: 0.1%; to `C[C@@H]1C=CCP(=O)(Oc2ccccc2)O1` (stereo partly specified), inactive: -1.8%.

For the compound `CC(=O)c1ccc(N2CC2c2ccncc2)cc1` (stereo unspecified), the inhibition is inactive: -34.9%.

As for `N#C/C(=C\c1ccc(N(CCBr)CCBr)cc1)C(N)=O`, the inhibition was inactive: -0.6%. To `COC(=O)C1(C)COP(=O)(NCc2ccccc2)OC1` (stereo unspecified) belongs inactive: 0.4%; to `CC(C)(C)C(=O)NC(Sc1ccccc1)C(Cl)(Cl)Cl` (stereo unspecified), inactive: -0.4%. For `CCc1cc(O)c([N+](=O)[O-])c(C)c1[N+](=O)[O-]`, the inhibition is inactive: 3.5%.

For `O=P1(Nc2nc3ccc(Cl)cc3s2)COc2ccccc2O1` (stereo unspecified), the inhibition is inactive: 0.1%.

Take `CCOc1ccc(C2=NCC(CBr)S2)cc1` (stereo unspecified): the inhibition is inactive: 1.5%. Regarding `COc1cc(C2NCCC3(OCCO3)C2(C)C)cc(OC)c1OC` (stereo unspecified), the inhibition was inactive: -10%.

Turning to `CCOP(=O)(Nc1cccc2ccccc12)OCC`, the inhibition is inactive: -4.1%.

Regarding `Cc1ccc(NCCc2c([N+](=O)[O-])cc([N+](=O)[O-])cc2[N+](=O)[O-])cc1`, the inhibition was inactive: -12.1%. To `Nc1cccc2c([As](=O)(O)O)cccc12` belongs inactive: -16.2%; to `CCCOP(=S)(Nc1nc(N)cc(=O)[nH]1)OCCC`, inactive: 0.9%. To `Cc1cccc(OCC(=O)OC2CN3CCC2CC3)c1` (stereo unspecified) belongs inactive: -0.5%; to `O=[As](O)(c1cccc(O)c1)c1cccc(O)c1`, inactive: 1.3%; to `O=[As](O)(O)c1cccnc1`, inactive: -6%. With `COc1cc(C(=O)NCC2(N3CCOCC3)CCCCC2)cc(Cl)c1OC(C)C`, the inhibition was inactive: -7.6%. For `CS(=O)(=O)c1ccc(Cl)c(NC(=O)COC(=O)C(O)(c2ccccc2)c2ccccc2)c1` the value was inactive: -0.8%. On to `N#CCCN(C(=O)COC(=O)C(O)(c1ccccc1)c1ccccc1)c1ccc(F)cc1`, for which the inhibition was inactive: -447%. For `CN(C(=O)Cc1ccccc1)[C@@H]1CC[C@]2(CCCO2)C[C@H]1N1CCCC1` the value was inactive: -1.4%; for `CCOP1(=S)c2c(C)nn(CCC#N)c2N=C(c2ccc(F)cc2)N1C` (stereo unspecified), inactive: -3.2%; for `O=[N+]([O-])c1ccc2c(c1)nnn2O`, inactive: -0.2%.

Turning to `CN(C)C(=O)c1cc([N+](=O)[O-])cc2c1-c1c(cc([N+](=O)[O-])cc1[N+](=O)[O-])C2=O`, the inhibition was inactive: -4.4%.

Turning to `CN(C(=O)Cc1ccc(Cl)c(Cl)c1)[C@H]1CC[C@@]2(CCCO2)C[C@@H]1N1CCCC1`, the inhibition was inactive: -2%. As to `NC(=O)Nc1ccc([As](=O)(O)O)cc1`, the inhibition is inactive: -8.1%.

Regarding `O=C(O)COc1ccc([As](=O)(O)O)cc1[N+](=O)[O-]`, the inhibition is inactive: 12.9%. To `Nc1ccccc1[As](=O)(O)c1ccccc1` belongs inactive: 2%; to `CCOP1(=S)c2c(C)nn(CCC#N)c2N=C(c2ccccc2F)N1C` (stereo unspecified), inactive: 2%. `O=P(Nc1nccs1)(Oc1ccccc1)Oc1ccccc1`: the inhibition is inactive: -0.4%. To `O=P(Nc1nccs1)(c1ccccc1)c1nc2ccccc2s1` (stereo unspecified) belongs inactive: 6%; to `Nc1cccc([As](=O)(O)c2ccccc2)c1`, inactive: -1.3%; to `Cc1ccc(OCC(=O)OC2CN3CCC2CC3)cc1` (stereo unspecified), inactive: -24%. To `O=[As](O)(c1cccs1)c1cccs1` belongs inactive: -2.6%; to `NS(=O)(=O)c1cccc(NC(=O)COC(=O)C(O)(c2ccccc2)c2ccccc2)c1`, inactive: -3.8%; to `O=P1(Nc2ccc(Br)cn2)COc2ccccc2OC1`, inactive: 0.9%. As to `Cc1ccc(S(=O)(=O)N(CCCN)CCCc2c(C)nc(N)[nH]c2=O)cc1`, the inhibition is inactive: -5.1%.

On to `O=P1(Nc2ncccn2)COc2ccccc2OC1`, for which the inhibition is inactive: -11.6%. To `CN(C)C1(CNC(=O)c2ccc(S(C)(=O)=O)cc2)CCCCC1` belongs inactive: -6.6%. For `O=C(/C=C/c1ccccc1)OC1CN2CCC1CC2` (stereo unspecified) the value was inactive: -0.4%.

Turning to `CCCC1OP(=O)(Nc2ccccc2)OCC1CC` (stereo unspecified), the inhibition is inactive: 8.8%. Regarding `Cc1nn(-c2ccccc2)c2c1P(=O)(N1CCOCC1)N(C)C(c1ccccc1)=N2` (stereo unspecified), the inhibition was inactive: -8.5%. With `Cc1ccc(C(=O)OC2CN3CCC2CC3)cc1` (stereo unspecified), the inhibition is inactive: 16.2%.

As for `CC1CCC(C(C)C)C(OP(=O)(Nc2ccccn2)c2ccccc2)C1` (stereo unspecified), the inhibition was inactive: -1.7%. For `CN(C(=O)Cc1ccc(Cl)c(Cl)c1)[C@@H]1CCCC[C@H]1N1CCCC1`, the inhibition was inactive: 5.4%. To `CC(C)/C=N\N=C(\N)N[N+](=O)[O-]` belongs inactive: 5.2%; to `CC1(CBr)Cn2c(nc3ccccc3c2=O)S1` (stereo unspecified), inactive: -8.4%; to `O=P1(N(CCCl)CCCl)NCCC(C(F)(F)F)O1` (stereo unspecified), inactive: -1.4%. To `CC(C)(C)C(=O)NC(Sc1ncccn1)C(Cl)(Cl)Cl` (stereo unspecified) belongs inactive: -2.5%. To `CCC1=CC2Cc3nc4ccc(Cl)cc4c(N)c3C(C1)C2` (stereo unspecified) belongs inactive: -11.6%.

Turning to `O=P1(Nc2ccccn2)COc2ccccc2OC1`, the inhibition is inactive: 14.2%. For `CCOP(=O)(NC(=NC(C)c1ccccc1)NC(C)c1ccccc1)OCC` (stereo unspecified) the value was inactive: -11.3%; for `CCOP(=O)(Nc1ccc(C)cn1)OCC`, inactive: -4.1%; for `CN(CCCl)Cc1cc(Cl)c(NC2=NCCN2)c(Cl)c1`, inactive: -4.2%.

For the compound `CCC(C)N(CC(C)C)C(=S)SC(NC(C)=O)C(Cl)(Cl)Cl` (stereo unspecified), the inhibition was inactive: -38%.

For the compound `CSc1ccc(Nc2c([N+](=O)[O-])cc([N+](=O)[O-])cc2[N+](=O)[O-])cc1`, the inhibition is inactive: -13.5%. `O=C(O)C(=O)c1ccc(N(CCCl)CCCl)cc1`: the inhibition was inactive: -4.5%. For `O=C(COc1ccccc1)OC1CN2CCC1CC2` (stereo unspecified) the value was inactive: 2.9%; for `COP1(=S)c2c(C)nn(CCC#N)c2N=C(c2ccc(F)cc2)N1C` (stereo unspecified), inactive: -6%.

In the case of `COC(=O)C1(C)COP(=O)(N2CCCC2)OC1` (stereo unspecified), the inhibition is inactive: -3.5%. To `Cc1cc(SC(NC=O)C(Cl)(Cl)Cl)ncn1` (stereo unspecified) belongs inactive: -1.5%; to `O=P(Nc1ccccn1)(c1cccc2ccccc12)c1cccc2ccccc12`, inactive: -0.2%.

As for `CCOC(=O)Nc1cccc([As](=O)(O)O)c1`, the inhibition was inactive: 0.3%.

In the case of `COP(=O)(OC)N1CC1c1ccccc1` (stereo unspecified), the inhibition was inactive: -2.6%. To `CCCCOc1ccc(C(=O)NCC2(N3CCCCC3)CCCCC2)cc1OC` belongs inactive: 1.5%; to `Cc1cc(SC(NC(=O)c2ccccc2)C(Cl)(Cl)Cl)nc(C(C)C)n1` (stereo unspecified), inactive: 6.8%. Turning to `O=C(O)C(O)c1ccc(N(CCCl)CCCl)cc1` (stereo unspecified), the inhibition is inactive: -0.7%. To `CCOC(=O)Nc1ccc([As](=O)(O)O)c(O)c1` belongs inactive: -1.7%; to `CC1CCNP(=O)(N(CCCl)CCCl)O1` (stereo unspecified), inactive: -3.2%; to `CC(C)NC(=O)NP(=O)(Oc1ccccc1)Oc1ccccc1`, inactive: -2.6%. As to `CCN(CC)C(=S)SC(NC=O)C(Cl)(Cl)Cl` (stereo unspecified), the inhibition is inactive: -6.8%. For `O=C(OC1CN2CCC1CC2)c1cccc2[nH]cnc12` (stereo unspecified) the value was inactive: -0.4%; for `O=[N+]([O-])c1cc([N+](=O)[O-])c(-c2ccn[nH]2)s1`, inactive: -7.1%. For `ClCCSc1nnc(-c2cccnc2)o1` the value was inactive: 3.3%. As to `COC(=O)C1(C)COP(=O)(N2CCCCCC2)OC1` (stereo unspecified), the inhibition is inactive: 7.4%.

Turning to `CC(C)c1ccc(OP(=O)(Nc2ccccn2)Oc2ccccc2F)cc1` (stereo unspecified), the inhibition was inactive: -2.2%.

With `Cc1ccc(OP(=O)(Nc2ccc([N+](=O)[O-])cn2)Oc2ccc(C)cc2)cc1`, the inhibition is inactive: -16%. Take `[N-]=[N+]=NC1CCCCC1NC(=O)c1cc([N+](=O)[O-])cc([N+](=O)[O-])c1` (stereo unspecified): the inhibition is inactive: -6.4%. To `Cc1ccc2nc3c(c(C)c2c1)CC(C(Cl)Cl)S3` (stereo unspecified) belongs inactive: 2.2%; to `O=[As](O)(c1ccc(O)cc1)c1ccccc1O`, inactive: -0.2%. In the case of `C[As](=O)(O)c1cccc(C(=O)O)c1`, the inhibition was inactive: 20.4%. To `O=[N+]([O-])c1ccc(-c2cc([N+](=O)[O-])c(O)c([N+](=O)[O-])c2)cc1` belongs inactive: 4.1%; to `COc1cc(C(=O)NCC2(N3CCOCC3)CCCCC2)ccc1OCC(C)C`, inactive: 2%; to `O=[N+]([O-])c1cc(Oc2ccc([N+](=O)[O-])cc2C(F)(F)F)cc([N+](=O)[O-])c1`, inactive: -2.9%. For `COc1ccc(N/C(=N/P(=O)(N2CCOCC2)N2CCOCC2)N2CCOCC2)cc1` the value was inactive: 3.2%; for `O=P1(N(CCCl)CCCl)OCCCN1CCCl` (stereo unspecified), inactive: -2.1%. In the case of `O=P1(N(CCCl)CCCl)Nc2ccccc2N1`, the inhibition is inactive: -6.4%. For `COc1ccc2nc(NP(=O)(c3ccccc3)c3ccccc3)sc2c1` the value was inactive: -4.6%; for `COc1cc(I)ccc1[As](=O)(O)O`, inactive: -3.2%; for `Cc1c2c(nc3ccccc13)SC(C(Cl)Cl)C2` (stereo unspecified), inactive: -2.7%. To `O=C(OC1CN2CCC1CC2)C12CC3CC(CC(C3)C1)C2` (stereo unspecified) belongs inactive: 5.6%. Take `Cc1cc(=O)[nH]c(N[N+](=O)[O-])n1`: the inhibition is inactive: 0%.
